Assay results taken from US5783178A, “Polymer linked biological agents” (Supratek Pharma. Inc., priority 1994, dated 1998).

Test system: HSV-1
Experiment: Effect on virus production in Vero cells
Format: cell-based, strain L2

Substance: 5'-CGTTCCTCCTGU
- Infectious Titer of HSV-1 (oligonucleotide 1 μM, 22 hours past infection): 5 × 10^6 PFU/ml
- Infectious Titer of HSV-1 (oligonucleotide 1 μM, 39 hours past infection): 1 × 10^7 PFU/ml
- Infectious Titer of HSV-1 (oligonucleotide 2 μM, 22 hours past infection): 5 × 10^6 PFU/ml
- Infectious Titer of HSV-1 (oligonucleotide 2 μM, 39 hours past infection): 1 × 10^7 PFU/ml
